Compound potency records, mixed from different reports. Data source: NIAID ChemDB in PubChem.

All rows: tests in culture

Conditions beyond the fields shown may differ between rows.

COc1ccc(-n2c(C(=O)N[C@H](C(N)=O)c3ccccc3)c3n(c2=O)CCN(C(=O)c2ccc(Br)c(Cl)c2)C3)cc1 ; organism: Hepatitis B virus ; cells: HepG2.117 ; read by: PCR ; read-out: EC50 ; result: >5 µM
COC(=O)N[C@H](C(=O)N1CCCC1c1ncc(-c2ccc(-c3ccc(-c4cnc([C@@H]5CC(C)CN5C(=O)[C@@H](NC(=O)CO)C(C)C)[nH]4)cc3)cc2)[nH]1)C(C)C ; organism: Hepatitis C virus ; strain or isolate: 1a ; changes: Q30K ; cells: Lunet ; read by: luciferase ; read-out: EC50 ; result: 0.005 µM
Cc1c(C(=O)C(=O)NC(C)(C)c2ccc[nH]c2=O)c(C)n(C)c1C(=O)Nc1ccc(F)c(C(F)(F)F)c1 ; organism: Hepatitis B virus ; cells: HepG2.2.15 ; read by: PCR ; read-out: EC50 ; result: 0.001–0.0099 µM
NC(=S)Nc1cccc(OCCCCCOc2ccc(Cl)cc2)c1 ; organism: Hepatitis C virus ; cells: Ava5-EG(delta4AB)SEAP ; read by: reporter gene / fluorescence ; read-out: EC50 ; result: 0.001–1 µM
CS(=O)(=O)c1cccc(-n2c(C(=O)NCc3ccccc3)c3n(c2=O)CCN(C(=O)c2ccc(Br)c(Cl)c2)C3)c1 ; organism: Hepatitis B virus ; cells: HepG2.117 ; read by: PCR ; read-out: EC50 ; result: >5 µM
CC1CCC(C(=O)N(c2cc(C#CC(C)(C)C)sc2C(=O)O)C2CCC(O)CC2)CC1 ; organism: Hepatitis C virus ; strain or isolate: H77 (GT1a) ; changes: M423T ; cells: Huh7 ; read by: luciferase ; read-out: fold resistance ; result: 28.3
NC(=S)Nc1cccc(OCCCCCOc2cccc3ncccc23)c1 ; organism: Hepatitis C virus ; cells: Ava5-EG(delta4AB)SEAP ; read by: reporter gene / fluorescence ; read-out: EC50 ; result: 0.001–1 µM
O=C(NCc1ccccc1-c1ncccn1)c1c2n(c(=O)n1-c1ccc(-n3cccn3)cc1)CCN(C(=O)c1ccc(Br)c(Cl)c1)C2 ; organism: Hepatitis B virus ; cells: HepG2.117 ; read by: PCR ; read-out: EC50 ; result: <0.1 µM
C#CC1(NC(=O)C(=O)c2c(C)c(C(=O)Nc3ccnc(F)c3Br)n(C)c2C)COC1 ; organism: Hepatitis B virus ; cells: HepG2.2.15 ; read by: PCR ; read-out: EC50 ; result: 0.001–0.0099 µM
NC(=S)Nc1cccc(OCCCCCOc2ccccc2-c2cc(F)cc(F)c2)c1 ; organism: Hepatitis C virus ; cells: Ava5-EG(delta4AB)SEAP ; read by: reporter gene / fluorescence ; read-out: EC50 ; result: 0.001–1 µM
Cc1c(C(=O)C(=O)NC(C)(C)c2ccc3nc[nH]c3c2)c(C)n(C)c1C(=O)Nc1ccc(F)c(C#N)c1 ; organism: Hepatitis B virus ; cells: HepG2.2.15 ; read by: PCR ; read-out: EC50 ; result: 0.001–0.0099 µM
O=C(N[C@@H](C(=O)N1CCC[C@H]1c1ncc(-c2ccc(-c3ccc(-c4cnc([C@@H]5CCCN5C(=O)[C@H](NC(=O)C5CC5)c5ccccc5)s4)cc3)cc2)s1)c1ccccc1)C1CC1 ; organism: Hepatitis C virus ; strain or isolate: genotype 2a ; changes: P58L ; cells: Huh7.5 ; read by: luciferase / reporter gene ; read-out: fold resistance ; result: 212
C#CCNC(=O)C(=O)c1c(Cl)c(C(=O)Nc2ccc(F)c(C#N)c2)n(C)c1Br ; organism: Hepatitis B virus ; cells: HepG2.2.15 ; read by: PCR ; read-out: EC50 ; result: 0.01–0.099 µM
COc1ccc(-n2c(C(=O)NCc3ccc(=O)[nH]c3)c3n(c2=O)CCN(C(=O)c2ccc(Br)c(Cl)c2)C3)cc1 ; organism: Hepatitis B virus ; cells: HepG2.117 ; read by: PCR ; read-out: EC50 ; result: >5 µM
C#C[C@H](CO)NC(=O)C(=O)c1c(C)c(C(=O)Nc2ccc(F)c(C#N)c2)n(C)c1C ; organism: Hepatitis B virus ; cells: HepG2.2.15 ; read by: PCR ; read-out: EC50 ; result: 0.001–0.0099 µM
NC(=S)Nc1cccc(OCCCCCOc2ccccc2)c1 ; organism: Hepatitis C virus ; cells: Ava5-EG(delta4AB)SEAP ; read by: reporter gene / fluorescence ; read-out: EC50 ; result: 0.001–1 µM

The last 2 rows once more:

smiles | organism | strain or isolate | changes | cells | read by | read-out | result
C#C[C@H](CO)NC(=O)C(=O)c1c(C)c(C(=O)Nc2ccc(F)c(C#N)c2)n(C)c1C | Hepatitis B virus | - | - | HepG2.2.15 | PCR | EC50 | 0.001–0.0099 µM
NC(=S)Nc1cccc(OCCCCCOc2ccccc2)c1 | Hepatitis C virus | - | - | Ava5-EG(delta4AB)SEAP | reporter gene / fluorescence | EC50 | 0.001–1 µM

Blank or dashed fields: not listed here. Fold resistance: result on the changed form divided by that on wild type. Two numbers with a dash give a range or band. ECn: concentration that inhibits the pathogen or its effect by n%.